Results taken from article PMC7952403 (Nature Communications, 2021).

The binders below were run against T1, SARS-CoV-2 S1-S2 spike ectodomain with 6xHis tag, produced in High Five cells (SARS-CoV-2 Wuhan-Hu-1 (MN908947 / …, UniProt P0DTC2, […] | “GSAS” substitution at the furin site, residues 682–685) (assay: flow cytometry on cells). Conditions: both partners purified.
T1 construct: also called S1-S2-His; S1-S2 trimer; not shown: 6xHis, C-terminal, kept

Binder | inhibition of S1-S2 binding to ACE2-positive cells at 1500 nM scFv-Fc
STE73-6C8 scFv-Fc (scFv, V domains shown, also called scFv-hFc; source: Expi293F, transient transfection, purified (Protein A)) VH: QVQLQQSGAEVKKPGSSVKVSCKASGGTFSSYAISWVRQAPGQGLEWMGRIIPILGIANYAQKFQGRVTITADKSTSTAYMELSSLRSEDTAVYYCARSIAALNWFDPWGQGTLVTVSS VL: NFMLTQPHSVSESPGKTVTIPCTGSRGSIANNYVQWYRQRPGRAPTTVIFEDNQRPSGVPDRFSGSIDRSSNSASLTISGLETEDEADYYCQSYDGSNVIFGGGTKLTVL | > 75%
STE72-1B6 scFv-Fc (scFv, V domains shown, also called scFv-hFc; source: Expi293F, transient transfection, purified (Protein A)) VH: QVKLVQSGGGLVQPGGSLRLSCAASGFTFSSYAMSWVRQAPGKGLEWVSGISGSGGSTYYADSVKGRFTISRDNSKNTLYLQVNSLRAEDTAVYYCAKAPYGDFRGLWYFDYWGQGTLVTVSS VL: DIVMTQSPFSVSASVGDRVTISCRASQDIRSWLAWYQQKPGKAPQLLIYDASSLQSGVPSRFSGSGSGTDFTLTISSLQPEDFATYYCQQADSVPLTFGGGTKVEIQ | > 75%
STE73-6C1 scFv-Fc (scFv, V domains shown, also called scFv-hFc; source: Expi293F, transient transfection, purified (Protein A)) VH: QVQLVQSGGGVVQPGRSLRLSCAASGFTFSSYAMHWVRQAPGKGLEWVAVISYDGSNKYYADSVKGRFTISRDNSKNTLYLQMNSLRAEDTAVYYCARSYVGGMDVWGQGTTVTVSS VL: QLVLTQSPSVSGAPGQSVTISCTGTDSNIGAGYNVHWYQQLPGAAPKLIISYTDNRPSGVPDRFSGSKSGTSASLAITGLQAEDEADYYCQSSDRTLVGSLFGTGTKVTVL | > 75%
STE73-9G3 scFv-Fc (scFv, V domains shown, also called scFv-hFc; source: Expi293F, transient transfection, purified (Protein A)) VH: QVQLQESGGGLVQPGGSLRLSCAASGFTFSSYAMSWVRQAPGKGLEWVSAISGSGGSTYYADSVKGRFTISRDNSKNTLYLQMNSLRAEDTAVYYCARDLVLGSGSSNDWGRGTLVTVSS VL: QPVLTQPPSVSGAPGQSVTISCTGTDSNIGAGYNVHWYQQLPGAAPKLIISYTDNRPSGVPDRFSGSKSGTSASLAITGLQAEDEADYYCQSSDRTLVGSLFGTGTKVTVL | > 75%
STE72-4C10 scFv-Fc (scFv, V domains shown, also called scFv-hFc; source: Expi293F, transient transfection, purified (Protein A)) VH: EVQLQESGGGVVQPGRSLRLSCAASGFTFSSYAMHWVRQAPGKGLEWVAVISYDGSNKYYADSVKGRFTISRDNSKNTLYLQMNSLRAEDTAVYYCAREYSSSWYGLGAFDIWGQGTMVTVSS VL: DIRLTQSPSSLSASVGDRVTITCRASQNIHYYLNWYQQKPGKAPSLLVYGASSLQSGVPSRFSGSGSGTEYTLTISSLQPEDFATYFCQQSFKSPATFGQGTKVDIK | > 75%
STE72-8E1 scFv-Fc (scFv, V domains shown, also called scFv-hFc; source: Expi293F, transient transfection, purified (Protein A)) VH: QVQLQEWGPGLVQPSETLSLTCTVSGGSISSGGYYWSWIRQHPGKGLEWIGRIYPSGSTNYNPSLKSRVTMSVDTSENQFSLKLSSVTAADTAVYYCARGGPKRSGSPFDVWGQGTMVTVSS VL: EVVMTQSPSTLSASVGDRVTITCRASQTFGPWLAWYQQKPGQAPKLLIYMASELESGVPSRFSGSGSGTEFTLSISSLQPDDFATYYCQQYNTFSPWTFGQGTKVDIK | > 75%
STE70-1E12 scFv-Fc (scFv, V domains shown, also called scFv-hFc; source: Expi293F, transient transfection, purified (Protein A)) VH: QMQLVQSGAEVKKPGASVKVSCKASGYTFTGYYMHWVRQAPGQGLEWMGRINPNSGGTNYAQKFQGRVTMTRDTSTSTAYMELSRLRSDDTAVYYCVRDGYNFNNWFDPWGQGTLVTVSS VL: NFMLTQPHSVSGSPGETITISCTGSGGSIASNYVQWYRQRPGSAPTIVIYEDTQRPSGVPDRFSGSIDSSSNSASLTISGLKTEDEADYYCQSSESTNHVMFGGGSKLTVL | > 75%
STE73-2B2 scFv-Fc (scFv, V domains shown, also called scFv-hFc; source: Expi293F, transient transfection, purified (Protein A)) VH: QVQLVQSGAEVKKPGASVKVSCKASGYTFTGYYMHWVRQAPGQGLEWMGWINPNSGGTNYAQKFQGRVTITRDTSASTAYMELSSLRSEDTAVYYCARVSGWYFGAFDIWGQGTMVTVSS VL: LPVLTQPHSLSESPGKTVNISCTGSSGSIASNYVQWYQQRPGSAPTTVIYEDSHRPSGVPDRFSGSIDSSSNSASLSISGLKTEDEADYYCQSYDSSNNQWVFGGGTKLTVL | > 75%
STE73-2G8 scFv-Fc (scFv, V domains shown, also called scFv-hFc; source: Expi293F, transient transfection, purified (Protein A)) VH: QVQLVQSGGGLVKPGGSLRLSCAASGITVSSNYMSWVRQAPGKGLEWVSILYSGGTTFYTDSVKGRFTISRDNSKNTLHLQMNSLRAEDTAVYYCARWSGTYYDYWGQGTLVTVSS VL: SSELTQDPAVSVALGQTVRITCQGDSLRSYYASWYQQKPGQAPVLVIYGKNNRPSGIPDRFSGSSSGNTASLTITGAQAEDEADYYCNSRDSTNDPVLFGAGTKLTVL | > 75%
STE72-4E12 scFv-Fc (scFv, V domains shown, also called scFv-hFc; source: Expi293F, transient transfection, purified (Protein A)) VH: QVQLVQSGAEVKKPGASVKVSCKASGYTFTSYYMHWVRQAPGQGLEWMGIINPSGGSTSYAQKFQGRVTMTRDTSTSTVYMELSSLRSEDTAVYYCARDLSGGLDYWGQGTLVTVSS VL: ETTLTQSPATLSVSPGERVTLACRAGQTISSKLAWYRQKPGQAPSLLIYDASTRATGVPARFSGSGSGTEFTLTISSLQSEDFAVYYCQQYSDWPPTFGQGTKVEIK | > 75%
STE72-2G4 scFv-Fc (scFv, V domains shown, also called scFv-hFc; source: Expi293F, transient transfection, purified (Protein A)) VH: QVQLVQSGAEVKKPGASVKVSCKASGYTFTSYGISWVRQAPGQGLEWMGWISAYNGNTNYAQKLQGRVTMTTDTSTSTAYMELRSLRSDDTAVYYCARFFYDSSGYSTDYWGQGTLVTVSS VL: ETTLTQSPAFMSVTPGDRAILSCRASQSVDSHLAWYHQKPGQPPRLLIYGASTRATGIPARFSGSRSGTEFTLTISGLQSEDLGVYYCQQYASWPPGYNFGQGTKLEIK | > 75%
STE73-2C2 scFv-Fc (scFv, V domains shown, also called scFv-hFc; source: Expi293F, transient transfection, purified (Protein A)) VH: QVQLVESGGGLVQPGGSLRLSCAASGITVSSNYMSWVRQAPGKGLEWVSVIYSGGSTFYADSVKGRFTISRDNSKNTLYLQMNSLRAEDTGVYYCARGHDNLDYWGQGTLVTVSS VL: LPVLTQPHSVSESPGKTVIISCTGSSDSIASNYVQWYQQRPGSAPTTVIYEDNKRPSGVPDRFSGSTDSSSNSASLTISGLKTEDEAEYYCQSYDSNNHWVFGGGTKLTVL | > 75%
STE72-1G5 scFv-Fc (scFv, V domains shown, also called scFv-hFc; source: Expi293F, transient transfection, purified (Protein A)) VH: QVQLVQSGAEVKKPGASVKVSCKASGGTFSSYAISWVRQAPGQGLEWMGGIIPIFGTANYAQKFQGRVTITADESTSTAYMELSSLRSEDTAVYYCAVGGVQLWLTYWGQGTLVTVSS VL: ETTLTQSPGALSLSPGERATLSCRVSQSLSSNSLAWYQQKPGQAPRLLIYDTSIRATGIPDRFSGSGSGTDFTLTISRLEPEDFAVYYCHKYGSWPRTFGQGTKVEV | > 75%
